A mixed list of measured activities; the numbers were collected in NIAID ChemDB.

All rows: whole-cell or culture tests; agent: Hepatitis C virus

ECn: concentration that inhibits the pathogen or its effect by n%.

| structure | setting | cell line | read by | strain or isolate | measure | mutations | value |
|---|---|---|---|---|---|---|---|
| CO[C@@H]1[C@H](O)[C@@H](CO)O[C@H]1n1ccc(N)nc1=O | 48 h | Huh7 | - | - | EC50 | - | 12.6 µM |
| NC(=O)c1nn(Cc2cccc(NC(=O)c3ccc(C(F)(F)F)cc3)c2)c2ccccc12 | - | Huh7.5.1 | fluorescence | J399EM | EC50 | - | 0.044 µM |
| COc1ccc2c(O[C@@H]3C[C@H]4C(=O)N[C@]5(C(=O)O)C[C@H]5/C=C\CCCCC[C@H](NC(=O)OC5CCCC5)C(=O)N4C3)cc(-c3csc(NC(C)C)n3)nc2c1 | - | Huh 5-2 | luciferase | - | EC50 | - | >22 µM |
| N#Cc1c(-c2ccc(Cl)cc2)nc(NCc2nc3ccccc3[nH]2)[nH]c1=O | - | Huh7 | replicon / PCR | - | EC90 | - | 0.456 µM |
| COc1ccc2c(O[C@@H]3C[C@H]4C(=O)N[C@]5(C(=O)NS(=O)(=O)C6CC6)C[C@H]5/C=C\CCCCN(C)C(=O)[C@@H]4C3)cc(-c3nc(C(C)C)cs3)nc2c1C | - | Huh7.5 | antigen | 452 | EC50 | - | 2.599 µM |
| C[C@@]1(O)[C@H](O)[C@@H](CO)O[C@H]1n1cnc2c(N)ncnc21 | - | Huh7-Lunet | luciferase | GT5a | EC50 | - | 0.095 µM |
| CNC(=O)c1c(-c2ccc(F)cc2)oc2cc(N(CCO)S(C)(=O)=O)c(C3CC3)cc12 | - | Huh7 | luciferase | 2a | EC50 | - | 0.1564 µM |
| C[C@@]1(O)[C@H](O)[C@@H](CO)O[C@H]1c1ccc2c(=O)[nH]c(N)nn12 | - | Huh7 | luciferase | GT-1b Con1 | EC50 | - | >100 µM |
| CCC[C@H](NC(=O)[C@@H]1[C@H]2CCC[C@H]2CN1C(=O)[C@@H](NC(=O)[C@@H](NC(=O)c1cnccn1)C1CCCCC1)C(C)(C)C)C(=O)C(=O)NC1CC1 | - | Huh7.5 | antigen | NZL1 | EC50 | - | 4.959 µM |
| CCC[C@H](NC(=O)[C@@H]1[C@H]2CCC[C@H]2CN1C(=O)[C@@H](NC(=O)[C@@H](NC(=O)c1cnccn1)C1CCCCC1)C(C)(C)C)C(=O)C(=O)NC1CC1 | - | Huh7.5 | luciferase / reporter gene | genotype 1b | EC50 | Y93H | 0.1594 µM |
| O=C(O)c1c(-c2ccccc2Cl)nc(SCc2nc3ccccc3[nH]2)[nH]c1=O | - | Huh7 | replicon / PCR | - | EC90 | - | 0.666 µM |
| COc1ccc(C(=O)Nc2cccc(Cn3nc(C(N)=O)c4ccccc43)c2)cc1 | - | Huh7.5.1 | luciferase / replicon | J399EM | EC50 | Luciferase reporter gene | 0.182 µM |
| CC[C@H](C)C(=O)O[C@H]1CC=CC2C=C[C@H](C)[C@H](CC[C@@H]3C[C@@H](O)CC(=O)O3)[C@H]21 | - | Huh 5-2 | luciferase / replicon | - | EC50 | - | 1.3 µM |
| CCC[C@H](NC(=O)[C@@H]1[C@H]2CCC[C@H]2CN1C(=O)[C@@H](NC(=O)[C@@H](NC(=O)c1cnccn1)C1CCCCC1)C(C)(C)C)C(=O)C(=O)NC1CC1 | - | HuH6 | PCR | - | EC50 | - | >24 µM |
| O=C(O)c1c(-c2ccco2)nc(NCc2nc3ccccc3[nH]2)[nH]c1=O | - | Huh7 | replicon / PCR | - | EC90 | - | 2.12 µM |
| CC1CCC(C(=O)N(c2cc(C#CC(C)(C)C)sc2C(=O)O)C2CCC(O)CC2)CC1 | - | Huh7-Lunet | luciferase | GT4a | EC50 | - | 2.275 µM |
| C[C@@]1(O)[C@H](O)[C@@H](CO)O[C@H]1n1cnc2c(N)ncnc21 | - | JFH1 | luciferase | - | EC50 | - | 0.7987 µM |
| NC(=O)c1nn(Cc2ccc(NC(=O)c3ccccc3)cc2)c2ccccc12 | - | Huh7.5.1 | fluorescence | J399EM | EC50 | - | >10 µM |
| C[C@@]1(O)[C@H](O)[C@@H](CO)O[C@H]1c1ccc2c(N)ncnn12 | - | Huh7.5 | PCR | GT3a | EC50 | - | 0.42 µM |
| Fc1ccccc1-c1nc2ccn(Cc3ccc(-c4ccc(C(F)(F)F)cc4C(F)(F)F)nn3)cc-2n1 | - | Huh7 | luciferase | 1b | EC50 | - | 0.0015 µM |
| NC(=O)c1nn(Cc2ccccc2NC(=O)c2ccccc2)c2ccccc12 | - | Huh7.5.1 | fluorescence | J399EM | EC50 | - | 1.7 µM |
| N#Cc1c(-c2ccc(O)cc2)nc(SCc2nc3ccccc3[nH]2)[nH]c1=O | - | Huh7 | replicon / PCR | - | EC50 | - | 0.123 µM |
| [N-]=[N+]=N[C@]1(CO)O[C@@H](n2ccc(N)nc2=O)[C@H](O)[C@@H]1O | - | Huh 5-2 | luciferase | - | EC50 | - | >33 µM |
| CCC[C@H](NC(=O)[C@@H]1[C@H]2CCC[C@H]2CN1C(=O)[C@@H](NC(=O)[C@@H](NC(=O)c1cnccn1)C1CCCCC1)C(C)(C)C)C(=O)C(=O)NC1CC1 | - | - | luciferase | 1b R155K | EC50 | - | 3 µM |
| CC(=O)c1ccc(C(=O)Nc2cccc(Cn3nc(C(N)=O)c4ccccc43)c2)cc1 | - | Huh7.5.1 | fluorescence | J399EM | EC50 | - | 0.11 µM |

Blank or dashed fields: not listed here. Conditions beyond the fields shown may differ between rows.